This note sets out measurements from ChEMBL document CHEMBL3596151, “Elucidation of the in vitro and in vivo activities of bridged 1,2,4-trioxolanes, bridged 1,2,4,5-tetraoxanes, tricyclic monoperoxides, silyl peroxides, and hydroxylamine derivatives against Schistosoma mansoni” (Bioorg Med Chem, 2015).

For assay [1], the system named is Schistosoma mansoni. Nature of the assay: Antischistosomal activity against adult Schistosoma mansoni assessed as decrease in viability after 72 hrs by microscopic analysis.
The subject of assay [2] is Schistosoma mansoni. Kind of assay: Antischistosomal activity against newly transformed Schistosoma mansoni cercariae assessed as decrease in viability after 72 hrs by microscopic analysis.

As to `CC(C)C[C@]12OO[C@](C)(OO1)C2C` (some centres not stated), the IC50 in the assay with Schistosoma mansoni [1] was 20.8 µM.

For the molecule `CC[C@]12C[C@](CC(C)C)(OO1)OO2`, the results for the IC50 in the assay with Schistosoma mansoni [2] and in the assay on Schistosoma mansoni [1] were 4.7 µM and 20.9 µM, respectively.

For `CC(=O)CCC1(Cc2ccc([N+](=O)[O-])cc2)[C@]2(C)OO[C@@]1(C)OO2` (some centres not stated), the IC50 in the assay with Schistosoma mansoni [1] worked out at 23.6 µM.

For the molecule `CC(C)(C)[C@]12C[C@](C(C)(C)C)(OO1)OO2`, the IC50 with Schistosoma mansoni [1] was 12.1 µM.

In the case of `CC(C)C[C@]12C[C@](C)(OO1)OO2`, the IC50 in the assay with Schistosoma mansoni [2] worked out at 3.7 µM; in the assay with Schistosoma mansoni [1], 7.4 µM.

As usually defined, the IC50 is the concentration that gives 50% inhibition.
